Results published in US20200262877A1, “ION CHANNEL-BINDING PEPTIDES AND METHODS OF USE THEREOF” (priority 2017, published 2020).

T1: hERG, Q12809
T1 chain: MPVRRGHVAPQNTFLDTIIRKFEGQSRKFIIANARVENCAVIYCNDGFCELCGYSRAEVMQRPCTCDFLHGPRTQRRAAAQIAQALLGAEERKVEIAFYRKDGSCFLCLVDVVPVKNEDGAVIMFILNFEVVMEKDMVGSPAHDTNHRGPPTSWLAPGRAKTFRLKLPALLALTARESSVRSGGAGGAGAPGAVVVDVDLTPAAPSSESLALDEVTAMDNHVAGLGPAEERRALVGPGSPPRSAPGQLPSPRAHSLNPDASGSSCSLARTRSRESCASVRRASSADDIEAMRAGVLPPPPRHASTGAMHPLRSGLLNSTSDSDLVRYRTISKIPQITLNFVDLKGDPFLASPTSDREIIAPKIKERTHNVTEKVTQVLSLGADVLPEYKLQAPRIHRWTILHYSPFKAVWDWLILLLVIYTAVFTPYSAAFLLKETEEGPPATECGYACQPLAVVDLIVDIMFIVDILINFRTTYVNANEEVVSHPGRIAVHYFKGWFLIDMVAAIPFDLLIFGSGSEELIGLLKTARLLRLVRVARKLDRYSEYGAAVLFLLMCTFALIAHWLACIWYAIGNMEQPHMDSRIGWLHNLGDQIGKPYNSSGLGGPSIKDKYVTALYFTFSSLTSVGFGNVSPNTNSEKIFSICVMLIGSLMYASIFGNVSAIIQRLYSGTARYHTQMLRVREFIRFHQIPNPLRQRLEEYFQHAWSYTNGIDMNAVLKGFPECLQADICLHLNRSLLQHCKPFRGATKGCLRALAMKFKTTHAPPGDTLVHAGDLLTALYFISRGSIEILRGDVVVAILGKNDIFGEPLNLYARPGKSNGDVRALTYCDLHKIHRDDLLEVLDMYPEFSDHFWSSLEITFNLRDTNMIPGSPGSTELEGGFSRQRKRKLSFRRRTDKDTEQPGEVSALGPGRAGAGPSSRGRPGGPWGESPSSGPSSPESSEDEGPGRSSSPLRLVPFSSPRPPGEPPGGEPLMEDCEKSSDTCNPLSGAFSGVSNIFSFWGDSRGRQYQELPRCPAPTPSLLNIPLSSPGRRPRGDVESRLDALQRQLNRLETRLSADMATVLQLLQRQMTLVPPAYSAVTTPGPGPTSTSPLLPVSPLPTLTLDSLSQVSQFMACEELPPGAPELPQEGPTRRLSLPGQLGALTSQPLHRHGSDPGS


What follows are binders tested against Cav2.2 (assay: cell-based or functional assay).

Q: Which % activity at 0.2 µM does the source give for GSDRDSCIDKSRCSKYGYYQECQDCCKKAGHNGGTCMFFKCKCA (modifications not checked) [SEQ ID NO: 14] here?
A: Its % activity at 0.2 µM is 129%.

What follows are binders tested against GABA (assay: cell-based or functional assay).

Q: GSDRDSCIDKSRCSKYGYYQECQDCCKKAGHNGGTCMFFKCKCA (modifications not checked) [SEQ ID NO: 14] was tested. Which % activity at 20 µM did it give?
A: Its % activity at 20 µM is 120%.

The binders below were run against Kir2.1 (assay: cell-based or functional assay).

Q: Which % activity at 20 µM does the source give for GSSCAKPRENCNRMNILCCRGECVCPTFGDCFCYGD (modifications not checked) [SEQ ID NO: 4] here?
A: Its % activity at 20 µM is 90%.

Each binder was assayed against Kv1.1 (assay: cell-based or functional assay).

Q: Which % activity at 20 µM does the source give for GSSEKDCIKHLQRCRENKDCCSKKCSRRGTNPEKRCR (modifications not checked) [SEQ ID NO: 3] here?
A: Its % activity at 20 µM is 73%.

Each binder was assayed against Kv1.2 (assay: cell-based or functional assay).

Q: How did the % activity at 0.2 µM turn out when GSAEIIRCSGTRECYAPCQKLTGCLNAKCMNKACKCYGCV (modifications not checked) [SEQ ID NO: 21] was run?
A: Its % activity at 0.2 µM is 52%.

Q: What about the % activity at 20 µM of the same binder?
A: The % activity at 20 µM was 36%.

Q: Which % activity at 20 µM does the source give for GSDRDSCIDKSRCSKYGYYQECQDCCKKAGHNGGTCMFFKCKCA (modifications not checked) [SEQ ID NO: 14] here?
A: The % activity at 20 µM was 34%.

Q: For GSSEKDCIKHLQRCRENKDCCSKKCSRRGTNPEKRCR (modifications not checked) [SEQ ID NO: 3], which % activity at 20 µM is on record?
A: The % activity at 20 µM was 45%.

Q: For GSGCFGYKCDYYKGCCSGYVCSPTWKWCVRPGPGR (modifications not checked) [SEQ ID NO: 9], which % activity at 0.2 µM is on record?
A: Its % activity at 0.2 µM is 120%.

Q: Which % activity at 0.2 µM does the source give for GSSCAKPRENCNRMNILCCRGECVCPTFGDCFCYGD (modifications not checked) [SEQ ID NO: 4] here?
A: The % activity at 0.2 µM was 90%.

Q: And the % activity at 20 µM?
A: Its % activity at 20 µM is 45%.

Each binder was assayed against Kv1.3 (assay: cell-based or functional assay).

Q: GSACQFWSCNSSCISRGYRQGYCWGIQYKYCQCQ (modifications not checked) [SEQ ID NO: 27] was tested. Which % activity at 20 µM did it give?
A: The % activity at 20 µM was 100%.

Q: What does the source list for GSAEIIRCSGTRECYAPCQKLTGCLNAKCMNKACKCYGCV (modifications not checked) [SEQ ID NO: 21]?
A: % activity at 0.2 µM: 65%; % activity at 20 µM: 5%

Q: What does the source list for GSSEKDCIKHLQRCRENKDCCSKKCSRRGTNPEKRCR (modifications not checked) [SEQ ID NO: 3]?
A: % activity at 0.2 µM: 92%; % activity at 20 µM: 87%

Each binder was assayed against Kv2.1 (assay: cell-based or functional assay).

Q: With GSSEKDCIKHLQRCRENKDCCSKKCSRRGTNPEKRCR (modifications not checked) [SEQ ID NO: 3] as the binder, how does the % activity at 0.2 µM read?
A: The % activity at 0.2 µM was 80%.

Each binder was assayed against NR2A (assay: cell-based or functional assay).

Q: How did the % activity at 20 µM turn out when GSSEKDCIKHLQRCRENKDCCSKKCSRRGTNPEKRCR (modifications not checked) [SEQ ID NO: 3] was run?
A: The % activity at 20 µM was 100%.

Q: Which % activity at 20 µM does the source give for GSSCAKPRENCNRMNILCCRGECVCPTFGDCFCYGD (modifications not checked) [SEQ ID NO: 4] here?
A: Its % activity at 20 µM is 90%.

What follows are binders tested against NR2B (assay: cell-based or functional assay).

Q: GSAEIIRCSGTRECYAPCQKLTGCLNAKCMNKACKCYGCV (modifications not checked) [SEQ ID NO: 21] was tested. Which % activity at 0.2 µM did it give?
A: Its % activity at 0.2 µM is 113%.

Q: With GSDRDSCIDKSRCSKYGYYQECQDCCKKAGHNGGTCMFFKCKCA (modifications not checked) [SEQ ID NO: 14] as the binder, how does the % activity at 0.2 µM read?
A: The % activity at 0.2 µM was 123%.

Q: GSSEKDCIKHLQRCRENKDCCSKKCSRRGTNPEKRCR (modifications not checked) [SEQ ID NO: 3] was tested. Which % activity at 20 µM did it give?
A: Its % activity at 20 µM is 74%.

Q: How did the % activity at 20 µM turn out when GSGVPINVRCRGSRDCLDPCRRAGMRFGRCINSRCHCTP (modifications not checked) [SEQ ID NO: 33] was run?
A: The % activity at 20 µM was 70%.

The binders below were run against TRPA1 (assay: cell-based or functional assay).

Q: For GSAEIIRCSGTRECYAPCQKLTGCLNAKCMNKACKCYGCV (modifications not checked) [SEQ ID NO: 21], which % activity at 0.2 µM is on record?
A: Its % activity at 0.2 µM is 119%.

Q: GSDRDSCIDKSRCSKYGYYQECQDCCKKAGHNGGTCMFFKCKCA (modifications not checked) [SEQ ID NO: 14] was tested. Which % activity at 20 µM did it give?
A: Its % activity at 20 µM is 66%.

Q: How did the % activity at 0.2 µM turn out when GSACLAEYQKCEGSTVPCCPGLSCSAGRFRKTKLCTK (modifications not checked) [SEQ ID NO: 25] was run?
A: The % activity at 0.2 µM was 124%.

Q: And the % activity at 20 µM?
A: Its % activity at 20 µM is 129%.

Q: Which % activity at 0.2 µM does the source give for GSGCFGYKCDYYKGCCSGYVCSPTWKWCVRPGPGR (modifications not checked) [SEQ ID NO: 9] here?
A: The % activity at 0.2 µM was 131%.

Q: GSSCAKPRENCNRMNILCCRGECVCPTFGDCFCYGD (modifications not checked) [SEQ ID NO: 4] was tested. Which % activity at 0.2 µM did it give?
A: Its % activity at 0.2 µM is 135%.

What follows are binders tested against TRPV1 (assay: cell-based or functional assay).

Q: Which % activity at 0.2 µM does the source give for GSDRDSCIDKSRCSKYGYYQECQDCCKKAGHNGGTCMFFKCKCA (modifications not checked) [SEQ ID NO: 14] here?
A: Its % activity at 0.2 µM is 133%.

Q: GSSEKDCIKHLQRCRENKDCCSKKCSRRGTNPEKRCR (modifications not checked) [SEQ ID NO: 3] was tested. Which % activity at 20 µM did it give?
A: Its % activity at 20 µM is 95%.

Biological target: T1, hERG, Q12809
Test: cell-based or functional assay

Q: GSACQFWSCNSSCISRGYRQGYCWGIQYKYCQCQ (modifications not checked) [SEQ ID NO: 27] was tested. Which % activity at 0.2 µM did it give?
A: The % activity at 0.2 µM was 90%.

Q: Which % activity at 20 µM does the source give for GSAEIIRCSGTRECYAPCQKLTGCLNAKCMNKACKCYGCV (modifications not checked) [SEQ ID NO: 21] here?
A: Its % activity at 20 µM is 72%.

Q: How did the % activity at 20 µM turn out when GSDRDSCIDKSRCSKYGYYQECQDCCKKAGHNGGTCMFFKCKCA (modifications not checked) [SEQ ID NO: 14] was run?
A: Its % activity at 20 µM is 1%.

Q: How did the % activity at 0.2 µM turn out when GSSEKDCIKHLQRCRENKDCCSKKCSRRGTNPEKRCR (modifications not checked) [SEQ ID NO: 3] was run?
A: Its % activity at 0.2 µM is 121%.

Q: With GSSCAKPRENCNRMNILCCRGECVCPTFGDCFCYGD (modifications not checked) [SEQ ID NO: 4] as the binder, how does the % activity at 20 µM read?
A: The % activity at 20 µM was 80%.

These binders were tested against α3β4 nicotinic receptor (assay: cell-based or functional assay).

Q: How did the % activity at 20 µM turn out when GSSEKDCIKHLQRCRENKDCCSKKCSRRGTNPEKRCR (modifications not checked) [SEQ ID NO: 3] was run?
A: The % activity at 20 µM was 92%.

Q: GSGVPINVRCRGSRDCLDPCRRAGMRFGRCINSRCHCTP (modifications not checked) [SEQ ID NO: 33] was tested. Which % activity at 20 µM did it give?
A: Its % activity at 20 µM is 90%.

These binders were tested against α4β2 nicotinic receptor (assay: cell-based or functional assay).

Q: Which % activity at 0.2 µM does the source give for GSACQFWSCNSSCISRGYRQGYCWGIQYKYCQCQ (modifications not checked) [SEQ ID NO: 27] here?
A: The % activity at 0.2 µM was 90%.

Q: GSAEIIRCSGTRECYAPCQKLTGCLNAKCMNKACKCYGCV (modifications not checked) [SEQ ID NO: 21] was tested. Which % activity at 20 µM did it give?
A: The % activity at 20 µM was 85%.
